This is one part of the list. Results with a measured potency or affinity are listed apart. Some structures show a salt or complex split into parts, the way the source records it. Activity calls are given as the source filed them. No rule for the calls is given here.

The chains behind the UniProt entries cited, without tags or fusion partners.
UniProt P03070, whole entry: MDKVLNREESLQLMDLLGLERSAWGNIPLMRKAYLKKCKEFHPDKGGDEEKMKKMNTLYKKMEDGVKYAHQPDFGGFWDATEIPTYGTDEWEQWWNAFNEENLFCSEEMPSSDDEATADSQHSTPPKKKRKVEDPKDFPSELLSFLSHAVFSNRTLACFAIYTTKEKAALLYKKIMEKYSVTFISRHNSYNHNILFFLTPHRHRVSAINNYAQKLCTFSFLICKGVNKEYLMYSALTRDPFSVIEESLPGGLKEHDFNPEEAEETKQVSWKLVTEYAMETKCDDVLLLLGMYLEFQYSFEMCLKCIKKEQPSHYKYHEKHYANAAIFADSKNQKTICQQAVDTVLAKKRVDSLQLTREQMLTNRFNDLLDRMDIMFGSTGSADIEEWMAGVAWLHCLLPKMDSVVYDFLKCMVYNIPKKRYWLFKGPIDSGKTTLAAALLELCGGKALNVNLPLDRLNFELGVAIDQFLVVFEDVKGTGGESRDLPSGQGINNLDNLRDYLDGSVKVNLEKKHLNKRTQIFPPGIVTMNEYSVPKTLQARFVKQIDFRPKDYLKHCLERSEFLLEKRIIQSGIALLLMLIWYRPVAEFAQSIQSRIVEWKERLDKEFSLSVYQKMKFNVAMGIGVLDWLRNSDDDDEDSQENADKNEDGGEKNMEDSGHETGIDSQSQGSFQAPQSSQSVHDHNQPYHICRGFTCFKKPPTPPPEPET

The target of the assay is Large T antigen (Simian virus 40) (UniProt P03070). The assay is described as follows: SV40 large T antigen inhibitors, biochemical (AID 1903). The following applies: SV40 large T antigen ATPase/helicase inhibition assay; at 20 µM; active compounds read high.
What is called inhibition is the change of the read-out against control, counted positive when it falls. `CP(=S)(Nn1cnnc1)Oc1ccccc1` (centres undefined): the inhibition is inactive: 3.58%.
In the case of `COc1ccccc1OP(C)(=O)Nc1ccccc1` (centres undefined), the inhibition was inactive: 8.01%.
As for `CP(=O)(Nc1ccccc1Br)Oc1ccccc1` (centres undefined), the figure is inactive: -6.39%; as for `CP(=O)(Oc1ccccc1)OC(c1ccccc1)C(F)(F)F` (centres undefined), inactive: 3.96%; as for `CP(=O)(Nc1ccc(SC(F)(F)F)cc1)Oc1ccc(Cl)cc1` (centres undefined), inactive: 15.9%.
As for `Cc1cccc(C)c1OP(C)(=O)Nc1ccc(SC(F)(F)F)cc1` (centres undefined), the inhibition was inactive: 6.81%.
As for `Cc1cc(C)cc(OP(C)(=O)Nc2ccc(SC(F)(F)F)cc2)c1` (centres undefined), the figure is inactive: -1.78%; as for `CCc1ccc(OP(C)(=O)N2CCN(c3ccc([N+](=O)[O-])cc3)CC2)cc1` (centres undefined), inactive: 15.4%; as for `CP(=O)(NC(=O)Nc1ccccc1)Oc1ccccc1` (centres undefined), inactive: 8.83%.
Take `CCOP(C)(=S)SCC(=O)NC(C)C(=O)O` (centres undefined): the inhibition is inactive: 7.34%.
Then `O=[N+]([O-])c1cc([N+](=O)[O-])c(O)c([N+](=O)[O-])c1.c1ccc(Oc2ccncc2)cc1`, with inactive: 12.7%; and `CCOC(=O)c1ccc(NP(C)(=O)Oc2ccc(OC)cc2)cc1` (centres undefined), with inactive: 17.1%.
With `CP(=O)(Nc1ccccn1)Oc1ccc(Cl)cc1` (centres undefined), the inhibition is inactive: 9%.
As to `CCN(CC)CCCOC(=O)C(O)(c1ccccc1)c1ccccc1`, the inhibition is inactive: 14%.
For the molecule `O=[N+]([O-])c1cc([N+](=O)[O-])c(Nc2cccnc2)c([N+](=O)[O-])c1`, the inhibition was inactive: 14.8%.
`Cc1cccc(C)c1OP(C)(N)=O` (centres undefined): the inhibition is inactive: 21.4%.
`CC(C)(C)c1ccc(OP(C)(=O)Nc2ccc(SC(F)(F)F)cc2)cc1` (centres undefined): the inhibition was inactive: -1.62%.
For the molecule `O=[N+]([O-])c1ccc2c(c1)C=Nc1ccccc1O2`, the inhibition was inactive: 21.8%.
Then `CCOC(=O)c1ccc(NP(C)(=O)Oc2ccccc2)cc1` (centres undefined), with inactive: -3.27%; and `Cc1ccc(NP(C)(=O)Oc2ccccc2)c(C)c1` (centres undefined), with inactive: 17.7%.
Then `COc1ccccc1OP(C)(=O)Nc1ccc(C)cc1` (centres undefined), with inactive: 2.63%.
As for `COc1ccc(OP(C)(=O)Nc2cccc(F)c2)cc1` (centres undefined), the figure is inactive: 2.09%.
Consider `COc1ccccc1OP(C)(=O)Nc1cc(Cl)ccc1C` (centres undefined), for which the inhibition was inactive: 11.9%.
Then `Cc1cc(C)cc(OP(C)(N)=O)c1` (centres undefined), with inactive: 4.39%; and `O=C(O)c1cccc(Nc2c([N+](=O)[O-])cc([N+](=O)[O-])cc2[N+](=O)[O-])c1`, with inactive: 3.06%; and `CC1=NCCc2c1[nH]c1ccccc21.O=[N+]([O-])c1cc([N+](=O)[O-])c(O)c([N+](=O)[O-])c1`, with inactive: 2.43%.
For the molecule `COc1ccccc1OP(C)(=O)Nc1cccc(Br)c1` (centres undefined), the inhibition was inactive: 7.71%.
Then `Cc1cc(C)cc(OP(C)(=O)Nc2ccc(C)cc2C)c1` (centres undefined), with inactive: 2.46%.
Regarding `CCOC(=O)c1ccc(NP(C)(=O)Oc2cc(C)cc(C)c2)cc1` (centres undefined), the inhibition was inactive: 4.64%.
In the case of `CP(=O)(Nc1cccc(Br)c1)Oc1ccccc1` (centres undefined), the inhibition is inactive: 6.51%.
Then `Cc1cc(C)cc(OP(C)(=O)Nc2ccccn2)c1` (centres undefined), with inactive: 6.79%.
As to `Cc1ccc(C)c(NP(C)(=O)Oc2ccccc2)c1` (centres undefined), the inhibition was inactive: 3.29%.
Consider `O=[N+]([O-])c1cc([N+](=O)[O-])c(-n2nnc3ccccc32)c([N+](=O)[O-])c1`, for which the inhibition is inactive: 7.54%.
As for `O=[N+]([O-])c1cc([N+](=O)[O-])c(-c2cnn(-c3ccccc3)c2)c([N+](=O)[O-])c1`, the figure is inactive: 13.7%.
Then `Cc1nc2ccc3ccccc3c2s1.O=[N+]([O-])c1cc([N+](=O)[O-])c(O)c([N+](=O)[O-])c1`, with inactive: 21.9%.
Consider `CCOC(=O)C(CC)C1=NC(C)(C)Cc2ccccc21.O=[N+]([O-])c1cc([N+](=O)[O-])c(O)c([N+](=O)[O-])c1` (centres undefined), for which the inhibition is inactive: 8.67%.
Then `O=[N+]([O-])c1cc([N+](=O)[O-])c(Nc2nnnn2CCO)c([N+](=O)[O-])c1`, with inactive: 23.8%.
As to `CC1=C2N=C(C=C3N=C(C(C)=C4[N-][C@@](C)([C@@H]5N=C1[C@](C)(CCC(=O)NC[C@@H](C)OP(=O)([O-])O[C@H]1[C@@H](O)[C@@H](n6cnc7cc(C)c(C)cc76)O[C@@H]1CO)[C@H]5CC(N)=O)[C@@](C)(CC(N)=O)[C@@H]4CCC(N)=O)[C@@](C)(CC(N)=O)[C@@H]3CCC(N)=O)C(C)(C)[C@@H]2CCC(N)=O.[C-]#N.[Co+3]`, the inhibition is inactive: -3.2%.
Turning to `CN1CCCCC1COC(=O)C1(O)c2ccccc2CCc2ccccc21` (centres undefined), the inhibition is inactive: 5.83%.
As for `COc1ccccc1OP(C)(=O)Nc1c(C)cccc1C` (centres undefined), the figure is inactive: 9.73%; as for `CP(=O)(Nc1ccc(SC(F)(F)F)cc1)Oc1ccccc1` (centres undefined), inactive: 1.33%; as for `CCCOc1ccc(NP(C)(=O)Oc2ccc(Cl)cc2)cc1` (centres undefined), inactive: 8.64%.
As for `COc1ccc(OP(C)(=O)Nc2cccc(Br)c2)cc1` (centres undefined), the figure is inactive: 1.6%.
Then `COc1ccc(NP(C)(=O)Oc2ccccc2OC)cc1` (centres undefined), with inactive: 17.3%; and `CN(C)CCOC(=O)C(O)(c1ccccc1)C1CCCCC1` (centres undefined), with inactive: 4.64%.
Turning to `Cc1cc(-c2cccc3ccccc23)c(C)cn1.O=[N+]([O-])c1cc([N+](=O)[O-])c(O)c([N+](=O)[O-])c1`, the inhibition was inactive: 7.33%.
Consider `O=[N+]([O-])c1cc([N+](=O)[O-])c(NCC2CCS(=O)(=O)C2)c([N+](=O)[O-])c1` (centres undefined), for which the inhibition is inactive: 0.33%.
Consider `O=[N+]([O-])c1ccc(OP2(=O)COCCO2)cc1` (centres undefined), for which the inhibition was inactive: 5.94%.
With `CP(=O)(Nc1ccc(SC(F)(F)F)cc1)Oc1ccc(F)cc1` (centres undefined), the inhibition is inactive: 5.22%.
In the case of `CCOP(C)(=S)SCC(=O)NC(C)(CC)C(=O)O` (centres undefined), the inhibition is inactive: 3.33%.
In the case of `CP(=O)(Nc1ccc2c(c1)OCCO2)Oc1ccccc1` (centres undefined), the inhibition was inactive: 12.1%.
`Cc1ccccc1NP(C)(=O)Nc1ccccc1C`: the inhibition was inactive: 6.06%.
As for `CC(C)c1ccc(OP(C)(=O)Nc2ccc(SC(F)(F)F)cc2)cc1` (centres undefined), the figure is inactive: 11%; as for `CP(=O)(Nc1ccccc1F)Oc1ccccc1` (centres undefined), inactive: 5.83%; as for `O=C(OCCN1CCN(CCOCc2ccccc2)CC1)C(O)(c1ccccc1)c1ccccc1`, inactive: 3.13%.
As for `O=C(OC1CN2CCC1CC2)c1ccc([N+](=O)[O-])cc1` (centres undefined), the figure is inactive: 5.65%; as for `COc1ccc2c(c1O)-c1c(O)c(OC)cc3c1[C@H](C2)[N+](C)(C)CC3.O=[N+]([O-])c1cc([N+](=O)[O-])c([O-])c([N+](=O)[O-])c1[O-]`, inactive: 36.4%; as for `COc1ccc(OP(C)(=O)Nc2ccc(SC(F)(F)F)cc2)cc1` (centres undefined), inactive: 1.51%.
For the molecule `CCOC(=O)c1ccc(NP(C)(=O)Oc2ccc(F)cc2)cc1` (centres undefined), the inhibition is inactive: 13.1%.
Take `CCN(CC)CCCOC(=O)C(O)(c1ccccc1)C1CCCCC1` (centres undefined): the inhibition is inactive: 1.74%.
As for `O=[N+]([O-])c1cc([N+](=O)[O-])c(OC2CCCCC2O)c([N+](=O)[O-])c1` (centres undefined), the figure is inactive: 10.5%; as for `CCCCCOc1ccc(NP(C)(=O)Oc2ccc(Cl)cc2Cl)cc1` (centres undefined), inactive: 9.69%; as for `CP(=O)(Nc1ccccc1)Oc1ccc(F)cc1` (centres undefined), inactive: 14.6%.
Then `Cc1cc(C)cc(OP(C)(=O)Nc2cccc(C(F)(F)F)c2)c1` (centres undefined), with inactive: 21%; and `COc1ccc(OP(C)(=O)Nc2ccccc2Br)cc1` (centres undefined), with inactive: -2.64%; and `COc1ccccc1OP(C)(=O)Nc1ccc(C)c(C)c1` (centres undefined), with inactive: 8.23%.
Take `Cc1nc2ccc3ccccc3c2o1.O=[N+]([O-])c1cc([N+](=O)[O-])c(O)c([N+](=O)[O-])c1`: the inhibition is inactive: 17.4%.
Regarding `CP(=O)(OCCOc1ccccc1)OCCOc1ccccc1`, the inhibition is inactive: 4.13%.
As for `CP(=O)(Nc1ccc(Cl)cc1Cl)Oc1ccccc1` (centres undefined), the figure is inactive: 6.48%; as for `COc1ccccc1OP(C)(=O)Nc1ccc(Br)cc1` (centres undefined), inactive: 13.5%.
For `CN(C)CCOC(=O)C(O)(c1ccccc1)C1CCCC1` (centres undefined), the inhibition is inactive: 4.87%.
Then `COc1ccc(OP(C)(=O)Nc2ccccn2)cc1` (centres undefined), with inactive: 0.77%; and `O=[N+]([O-])c1cc([N+](=O)[O-])c(Nc2ccccn2)c([N+](=O)[O-])c1`, with inactive: 22.1%; and `Cc1c(NP(C)(=O)Oc2ccc(C(C)C)cc2)c(=O)n(-c2ccccc2)n1C` (centres undefined), with inactive: 10.3%.
As for `CCc1ccc(OP(C)(=O)O)cc1`, the inhibition was inactive: -6.32%.
Then `COc1ccccc1OP(C)(=O)Nc1ccc(C)cc1C` (centres undefined), with inactive: 9.21%.
As for `CP(=O)(Nc1ccccn1)Oc1ccccc1` (centres undefined), the figure is inactive: -0.06%; as for `COc1ccc(OP(C)(=O)Nc2ccc(Br)cc2)cc1` (centres undefined), inactive: -0.16%.
Consider `CCN(CC)CC(O)COC(=O)C(O)(c1ccccc1)C1CCCCC1` (centres undefined), for which the inhibition is inactive: 5.23%.
Take `CCc1ccc(OP(C)(=O)Nc2cccnc2)cc1` (centres undefined): the inhibition is inactive: 2.34%.
Take `CP(=O)(Oc1ccccc1)N1CCOC1=O` (centres undefined): the inhibition was inactive: 2.63%.
As for `O=C(OCCCN1CCCC1)C(O)(c1ccccc1)C1CCCCC1` (centres undefined), the figure is inactive: 3.54%.
As to `CP(=O)(Nc1ccc(Cl)cc1)Oc1ccc(F)cc1` (centres undefined), the inhibition was inactive: -1.47%.
Then `CC(C)(C)c1ccc(OP(C)(=O)O)cc1`, with inactive: 14.9%; and `COc1ccccc1OP(C)(=O)Nc1ccccc1Br` (centres undefined), with inactive: 1.03%.
Regarding `CN(C)C(=O)c1c([N+](=O)[O-])cc([N+](=O)[O-])cc1[N+](=O)[O-]`, the inhibition is inactive: 7.16%.
Take `Nc1ccc2c(ccc3cccnc32)n1.O=[N+]([O-])c1cc([N+](=O)[O-])c(O)c([N+](=O)[O-])c1`: the inhibition is inactive: 16.8%.
Then `CP(=O)(OC12CC3CC(CC(C3)C1)C2)OC12CC3CC(CC(C3)C1)C2`, with inactive: -1.05%; and `CCOC(=O)c1ccc(NP(C)(=O)Oc2ccc(Cl)cc2)cc1` (centres undefined), with inactive: 11.4%.

These data come from PubChem BioAssay AID1903 (Southern Research Specialized Biocontainment Screening …, 2009).
